Results of unrelated studies side by side (data: NIAID ChemDB).

Shared fields: tests in culture; organism: Candida albicans; measure: MIC

Two numbers with a dash give a range or band.

SMILES | strain | method | value
N/C(=N\NC(=O)c1ccc(Cl)cc1)SCc1cccc(Cl)c1 | - | - | >100 µg/mL
CN(C)c1ccc(-c2sc3ccccc3c2CO)cc1 | - | - | 25 µg/mL
C=CCS/C(N)=N/NC(=O)c1ccc(F)cc1 | - | - | >100 µg/mL
COc1ccc(NC(=O)c2ncccc2O)cc1 | ATCC 44859 | - | 125 µM
OCC1c2ccccc2SC1c1cc(Br)ccc1O | - | - | >100 µg/mL
C=CCS/C(N)=N/NC(=O)c1ccc(C)cc1 | - | - | >100 µg/mL
Cc1ccc2c(c1)c1nnc(N3CCN(C)CC3)nc1n2C | 2381E | - | 4 µg/mL
COc1ccc(N2C(=O)CC(C)C2=O)cc1 | ATCC 10231 | broth dilution / turbidity | 250 µg/mL
O=C(Nc1ccc(Cl)cc1)c1ncccc1O | ATCC 44859 | - | >125 µM
CS(C)=O | F2 sensitive | - | 6.25 µg/mL
C[C@@H](N1CCN(c2ccc(OC(F)(F)C(F)F)cc2)C1=O)C(O)(Cn1cncn1)c1ccccc1F | TA | - | <0.016 µg/mL
COc1cccc(-c2sc3ccccc3c2CO)c1O | - | - | >100 µg/mL
Cc1cc(COc2ccc(Oc3ccc(Cl)cc3)cc2)n(O)c(=O)c1 | TIMM2640 | - | >8 µg/mL
Cc1c(O)cccc1C(=O)N[C@@H](CSc1ccccc1)[C@H](O)CN1C[C@H]2CCCC[C@H]2C[C@H]1C(=O)NC(C)(C)C | I173A | - | 64 µg/mL
C[C@H](n1nnnc1CCN1CCN(c2ccccn2)CC1)[C@](O)(Cn1cncn1)c1ccc(F)cc1F | - | - | 4 µg/mL
C[C@H]1[C@H](O)[C@@H](C)/C=C/C=C/C=C/C=C/C=C/C=C/C=C/[C@H](O[C@@H]2O[C@H](C)[C@@H](O)[C@H](N)[C@@H]2O)C[C@@H]2O[C@](O)(C[C@@H](O)C[C@@H](O)CC[C@H](O)[C@@H](O)C[C@@H](O)CC(=O)O[C@H]1C)C[C@H](O)[C@H]2C(=O)O | BC759 | - | 1.25 µg/mL
CCCCc1ccccc1N1CCN(CCc2nnnn2[C@@H](C)[C@](O)(Cn2cncn2)c2ccc(F)cc2F)CC1 | V-01-191A-261 (resistant) | - | 0.5 µg/mL
OCC1c2ccccc2SC1c1ccc(O)cc1O | - | - | 100 µg/mL
CCCCCCCCCCCCCC#CC1=N[C@H]1C(=O)OC | ATCC 14503 | - | 4–5 µg/mL
C=CCS/C(N)=N/NC(=O)c1ccc(OC)cc1 | - | - | >100 µg/mL
C[C@@H]1CC(=O)N(c2ccc(Cl)cc2)C1=O | ATCC 10231 | broth dilution / turbidity | 125 µg/mL
Cc1c(Cl)cccc1NC(=O)CCN1C(=O)S/C(=C\c2ccc(O)cc2O)C1=O | - | - | 50 µg/mL
COC(=O)[C@@H]1N=C1/C=C\CCCCCCCCCCCCC(C)(C)C | 96-489 | - | >64 µg/mL
CSc1cc(-c2ccc(F)cc2)c(C(=O)O)s1 | SKF | - | >100 µg/mL
NC(=S)NNC(=O)c1ccccc1 | - | - | >100 µg/mL
C[C@@H](N1CCN(c2ccc(OCC(F)(F)C(F)F)cc2)C1=O)C(O)(Cn1cncn1)c1ccccc1F | TIMM1756 | - | <0.016 µg/mL
CCCCCCCCCCCCC/C=C\C1=N[C@H]1C(=O)OC | 96-489 | - | 4 µg/mL
OCC1c2ccccc2SC1c1ccc2c(c1)OCO2 | - | - | 25 µg/mL
C[C@H](n1nnc(CCN2CCN(c3ccc(Cl)cc3)CC2)n1)[C@](O)(Cn1cncn1)c1ccc(F)cc1F | V-01-191A-261 (resistant) | - | 2 µg/mL
OCC1c2ccccc2SC1c1ccccc1O | - | - | 12.5 µg/mL
O=C(CCN1C(=O)S/C(=C\c2ccc(O)c(O)c2O)C1=O)Nc1ccccc1S | - | - | 12.5 µg/mL
Cc1c(Cc2ccc(Cl)cc2)nc(SCCN2CCCC2)[nH]c1=O | ATCC 10231 | - | 100 µg/mL
O=C(Nc1ccccc1)c1ccccc1O | ATCC 44859 | - | 125 µM
COc1ccc(O)c(C2Sc3ccccc3C2CO)c1 | - | - | 25 µg/mL
COc1ccccc1N1CCN(CCc2nnnn2[C@@H](C)[C@](O)(Cn2cncn2)c2ccc(F)cc2F)CC1 | - | - | 4 µg/mL
CCOC(=O)c1sc(SC)cc1-c1ccc(F)cc1 | SKF | - | >100 µg/mL
CC1CC(=O)N(CCc2ccccc2)C1=O | ATCC 10231 | broth dilution / turbidity | 125 µg/mL
CO[C@H]1C[C@@H]2CC[C@@H](C)[C@@](O)(O2)C(=O)C(=O)N2CCCC[C@H]2C(=O)O[C@H]([C@H](C)C[C@@H]2CC[C@@H](C(=O)ON3CCNCC3)[C@H](OC)C2)CC(=O)[C@H](C)/C=C(\C)[C@@H](O)[C@@H](OC)C(=O)[C@H](C)C[C@H](C)CCCC/C=C/1C | 579A | - | >100 µg/mL
CS/C(N)=N/NC(=O)c1ccc(Cl)cc1 | - | - | >100 µg/mL
O=C(Nc1ccc(C(F)(F)F)cc1)c1ncccc1O | ATCC 44859 | - | 250 µM
CC1C(=O)N(CCc2ccccc2)C(=O)C1C | ATCC 10231 | broth dilution / turbidity | 125 µg/mL
CCCCC/C=C/CCC(=O)[C@H]1O[C@H]1C(=O)N1COC1 | G2-sensitive | - | 12.5 µg/mL
CCCCCC[C@H]1OC(=O)CNC(=O)[C@@H]([C@H](C)O)NC(=O)[C@@H](CO)NC(=O)[C@H]([C@@H](C)CC)NC(=O)[C@H](CC(C)C)N(C)C(=O)[C@@H]1C | - | - | >100 µg/mL
O=C(CSc1nnc(-c2ccc3ncccc3c2)o1)Nc1nc2ccc(Br)cc2s1 | - | agar | 100 µg/mL
c1ccc(N2COc3c(ccc4ccccc34)C2)cc1 | MTCC 277 | - | 25 µg/mL
C[C@H](n1nnnc1CCN1CCN(c2ccc([N+](=O)[O-])cc2)CC1)[C@](O)(Cn1cncn1)c1ccc(F)cc1F | V-01-191A-261 (resistant) | - | 2 µg/mL
CC1C(=O)N(CCCc2ccccc2)C(=O)C1C | ATCC 10231 | broth dilution / turbidity | 62.5 µg/mL
CCOC(=O)c1sc2cc(-c3ccc(F)cc3)oc(=O)c2c1N | SKF | - | >100 µg/mL
Cc1ccc(NC(=O)CCN2C(=O)S/C(=C\c3ccccc3F)C2=O)c(Cl)c1 | - | - | 12.5 µg/mL
CCCCCC[C@H]1OC(=O)CNC(=O)[C@@H]([C@@H](C)O)NC(=O)[C@@H](CO)NC(=O)[C@H]([C@H](C)CC)NC(=O)[C@H](CC(C)C)N(C)C(=O)[C@@H]1C | - | - | >100 µg/mL
C[C@@H]1CC(=O)N(CCc2ccccc2)C1=O | ATCC 10231 | broth dilution / turbidity | 31.3 µg/mL
O=C(CSc1nnc(-c2ccc3ncccc3c2)o1)Nc1nc2ccc(I)cc2s1 | - | agar | 100 µg/mL
N/C(=N\NC(=O)c1ccc(F)cc1)SCc1cccc(Cl)c1 | - | - | >100 µg/mL
C/C=C/[C@@H]1OC(=O)C=C[C@@H]1O | - | - | 300 µg/mL
CS/C(N)=N/NC(=O)c1ccccc1 | - | - | >100 µg/mL
O=C(Nc1cccc(F)c1)c1ncccc1S | ATCC 44859 | - | >125 µM
CCc1c(Cc2ccc(Cl)cc2)nc(SCCN2CCOCC2)[nH]c1=O | ATCC 10231 | - | 100 µg/mL
C=CCS/C(N)=N/NC(=O)c1ccc([N+](=O)[O-])cc1 | - | - | >100 µg/mL
C[C@@H](n1ccn(-c2ccc(OC(F)(F)F)cc2)c1=O)C(O)(Cn1cncn1)c1ccc(F)cc1F | TA | - | <0.016 µg/mL
c1csc(-c2nnc(C3C4CC5CC(C4)CC3C5)o2)c1 | IFO 0583 | - | 2 µg/mL
CO[C@@H]1C[C@H](C[C@@H](C)[C@@H]2CC(=O)[C@H](C)/C=C(\C)[C@@H](O)[C@@H](OC)C(=O)[C@H](C)C[C@H](C)/C=C/C=C/C=C(\C)[C@@H](N(O)C(=O)N(C)C)C[C@@H]3CC[C@@H](C)[C@@](O)(O3)C(=O)C(=O)N3CCCC[C@H]3C(=O)O2)CC[C@H]1C(=O)ON(C)O | 10231 | - | 100 µg/mL
CCCCCCCCCCCCCCCC1=N[C@H]1C(=O)OC | ATCC 14503 | - | 14–15 µg/mL
COC(=O)c1c(N)oc2c(C)c(C)c(O)c(Sc3cccc(C)c3)c12 | KCCM 50235 | broth dilution | 25 µg/mL
O=C(CCN1C(=O)S/C(=C\c2ccccc2Br)C1=O)Nc1ccccc1[N+](=O)[O-] | - | - | 25 µg/mL
CCCCCCCCC(O)[C@H]1O[C@H]1C(=O)NC1CC1 | G2-sensitive | - | 3.125 µg/mL
CO[C@H]1C[C@@H]2CC[C@@H](C)[C@@](O)(O2)C(=O)C(=O)N2CCCC[C@H]2C(=O)O[C@H]([C@H](C)C[C@@H]2CC[C@@H](C(=O)ON(C)C)[C@H](OC)C2)CC(=O)[C@H](C)/C=C(\C)[C@@H](O)[C@@H](OC)C(=O)[C@H](C)C[C@H](C)CCCC/C=C/1C | 579A | - | 50 µg/mL
C[C@H](n1nnnc1CCN1CCN(c2ccccc2Cl)CC1)[C@](O)(Cn1cncn1)c1ccc(F)cc1F | - | - | 4 µg/mL
O=C(CSc1nnc(-c2ccc3ncccc3c2)o1)Nc1nc2ccccc2s1 | - | agar | 100 µg/mL
CO[C@H]1C[C@@H]2CC[C@@H](C)[C@@](O)(O2)C(=O)C(=O)N2CCCC[C@H]2C(=O)O[C@H]([C@H](C)C[C@@H]2CC[C@H](c3nn[nH]n3)[C@H](OC)C2)CC(=O)[C@H](C)/C=C(\C)[C@@H](O)[C@@H](OC)C(=O)[C@H](C)C[C@H](C)CCCC/C=C/1C | 10231 | - | >100 µg/mL
Cc1cc(NC(=O)CCN2C(=O)S/C(=C\c3ccc(Cl)cc3)C2=O)ccc1Cl | - | - | 25 µg/mL
CCCCCCCCCCCCCC[C@H](N)C(=O)N[C@H](C(=O)O)C1O[C@@H](n2ccc(=O)[nH]c2=O)[C@H](O)[C@@H]1O | H317 | - | >320 µg/mL
C[C@H](N)C(=O)N[C@@H](C(=O)O)n1cc(F)c(=O)[nH]c1=O | B-310 | - | >100 µg/mL
C[C@H](n1nnc(CCN2CCN(c3cccc(Cl)c3)CC2)n1)[C@](O)(Cn1cncn1)c1ccc(F)cc1F | - | - | 2 µg/mL
COc1cccc(N2COc3c(ccc4ccccc34)C2)c1 | MTCC 277 | - | 10 µg/mL
CCCCCCCC[C@H]1OC(=O)CNC(=O)[C@@H]([C@H](C)O)NC(=O)[C@@H](CO)NC(=O)[C@H]([C@H](C)CC)NC(=O)[C@H](CC(C)C)N(C)C(=O)[C@@H]1C | - | - | >100 µg/mL
C[C@@H](N1CCN(c2ccc(C(F)(F)F)cc2)C1=O)C(O)(Cn1cncn1)c1ccc(F)cc1F | TA | - | <0.016 µg/mL
Cc1ccc2c(c1)c1nnc(N3CC[N+](C)([O-])CC3)nc1n2C | 2005E | - | >125 µg/mL
CCOC(=O)c1c(N)oc2c(C)cc(O)c(C)c12 | KCCM 50235 | broth dilution | 25 µg/mL
Brc1cc(Br)c(N2COc3c(ccc4ccccc34)C2)c(Br)c1 | MTCC 277 | - | 15 µg/mL
N#Cc1ccc(NC(=O)CSc2nnc(-c3ccc4ncccc4c3)o2)cc1 | - | agar | 100 µg/mL
Nc1[nH]c(=O)ncc1F | KCCM 50235 | broth dilution | 25 µg/mL
CCOC(=O)c1sc(SC)cc1-c1ccc(Br)cc1 | SKF | - | >100 µg/mL
O=C(Nc1cccc(F)c1)c1ccccc1O | ATCC 44859 | - | 62.5 µM
C[C@H](n1nnc(CCN2CCN(c3ccccn3)CC2)n1)[C@](O)(Cn1cncn1)c1ccc(F)cc1F | V-01-191A-261 (resistant) | - | 4 µg/mL
CCc1c(Cc2ccc(OC)c(OC)c2)nc(SCCN2CCCCC2)[nH]c1=O | ATCC 10231 | - | 50 µg/mL
CCOC(=O)c1sc2cc(-c3ccc(OC)cc3)oc(=O)c2c1N | SKF | - | >100 µg/mL

For reference, 9 entries again:

SMILES | strain | method | value
Cc1ccc2c(c1)c1nnc(N3CCN(C)CC3)nc1n2C | 2381E | - | 4 µg/mL
CCOC(=O)c1sc(SC)cc1-c1ccc(F)cc1 | SKF | - | >100 µg/mL
CSc1cc(-c2ccc(F)cc2)c(C(=O)O)s1 | SKF | - | >100 µg/mL
N/C(=N\NC(=O)c1ccc(F)cc1)SCc1cccc(Cl)c1 | - | - | >100 µg/mL
COc1cccc(N2COc3c(ccc4ccccc34)C2)c1 | MTCC 277 | - | 10 µg/mL
CCOC(=O)c1c(N)oc2c(C)cc(O)c(C)c12 | KCCM 50235 | broth dilution | 25 µg/mL
c1ccc(N2COc3c(ccc4ccccc34)C2)cc1 | MTCC 277 | - | 25 µg/mL
O=C(CCN1C(=O)S/C(=C\c2ccc(O)c(O)c2O)C1=O)Nc1ccccc1S | - | - | 12.5 µg/mL
CCCCCC[C@H]1OC(=O)CNC(=O)[C@@H]([C@@H](C)O)NC(=O)[C@@H](CO)NC(=O)[C@H]([C@H](C)CC)NC(=O)[C@H](CC(C)C)N(C)C(=O)[C@@H]1C | - | - | >100 µg/mL

An empty or dashed field is not shown. Rows are shuffled and stem from different studies.